According to patent US20090029924A1, “Targeting host proteinases as a therapeutic strategy against viral and bacterial pathogens” (published 2009):

Tests used:
[1] = target: T1, Recombinant human furin (human, UniProt P09958 108-714); test: enzyme inhibition; peptide alone
[2] = target: T1, Recombinant human furin; test: enzyme inhibition; peptide on nanobeads

Binder | Ki [1] [nM] | Ki [2] [nM]
GAGAGATPQRARRRKKRW [GAGAGA-TPQRARRRKKRW] | 127 | 
GGGTPQRARRRKKRW [GGG-TPQRARRRKKRW] | 67 | 4280
GGGGGGTPQRARRRKKRW [GGGGGG-TPQRARRRKKRW] | 88 | 9090
